Laboratory results: paper PMC3411833, “The Two PPX-GppA Homologues from Mycobacterium tuberculosis Have Distinct Biochemical Activities” (PLoS ONE, 2012)

Test system: Nc1ncnc2c1ncn2[C@@H]1O[C@H](COP(=O)(O)OP(=O)(O)OP(=O)(O)O)[C@@H](O)[C@H]1O
Experiment: purified protein
Details: pH 7.4; 37.0 °C

## MTB-PPX1 (Rv0496) (Mycobacterium tuberculosis H37Rv)
  Km: 6.1 ± 0.8 mM

## Rv1026 (Mycobacterium tuberculosis H37Rv)
  Km: 2.6 ± 1.0 mM
